{"source": "PubChem BioAssay AID1259414 (Drosophila RNAi Screening Center, 2018)", "screen": "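Genome-wide screen for host control of endosymbiont load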 (primary screen)", "cell system": "Drosophila JW18 cells infected with Wolbachia", "reagents": "long dsRNA against Drosophila genes, 0.25 µg dsRNA per well of a 384-well plate", "time to read-out": "5 days", "challenge": "cells persistently infected with Wolbachia before knock-down; no added drug", "measured": "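Automated imaging of bacterial rRNA staining divided by host cell count, reported as plate-normalised robust z-score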", "reading the numbers": "Wolbachia per cell robust z: higher = more Wolbachia per host cell than the plate typical", "active means": "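Hit when robust z is 1.5 or more, or -1.5 or less, in at least two of three replicates; excludes dsRNAs with several or no targets, genes not expressed in JW18 and well A1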", "note": "The screen tested about 24,000 reagents; shown is a random part of those with a known target gene and a result. Over the whole deposit, about 1,210 (5%) are marked active. 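Inactive calls also include excluded dsRNAs with several or no targets, genes unexpressed in JW18, and well A1, regardless of score.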 A number with no mark means an inactive call. Reagent sequences are not shown."}
{"target gene": "CG6244", "DRSC id": "DRSC10609", "Wolbachia per cell robust z, rep 1": -0.246, "Wolbachia per cell robust z, rep 2": 0.236, "Wolbachia per cell robust z, rep 3": -1.43}
{"target gene": "sta (stubarista)", "DRSC id": "DRSC18838", "Wolbachia per cell robust z, rep 1": 0.209, "Wolbachia per cell robust z, rep 2": 1.41, "Wolbachia per cell robust z, rep 3": 1.18}
{"target gene": "sta (stubarista)", "DRSC id": "DRSC25879", "Wolbachia per cell robust z, rep 1": "1.54 (active)", "Wolbachia per cell robust z, rep 2": 6.64, "Wolbachia per cell robust z, rep 3": 6.59}
{"target gene": "mRpL51 (mitochondrial ribosomal protein L51)", "DRSC id": "DRSC02200", "Wolbachia per cell robust z, rep 1": -0.697, "Wolbachia per cell robust z, rep 2": -0.805, "Wolbachia per cell robust z, rep 3": -0.835}
{"target gene": "mRpL51 (mitochondrial ribosomal protein L51)", "DRSC id": "DRSC29908", "Wolbachia per cell robust z, rep 1": 0.463, "Wolbachia per cell robust z, rep 2": -0.235, "Wolbachia per cell robust z, rep 3": 0.427}
{"target gene": "Tango6 (Transport and Golgi organization 6)", "DRSC id": "DRSC02671", "Wolbachia per cell robust z, rep 1": 0.214, "Wolbachia per cell robust z, rep 2": -1.64, "Wolbachia per cell robust z, rep 3": -1.48}
{"target gene": "Tango6 (Transport and Golgi organization 6)", "DRSC id": "DRSC29389", "Wolbachia per cell robust z, rep 1": 0.904, "Wolbachia per cell robust z, rep 2": 0.124, "Wolbachia per cell robust z, rep 3": -0.699}

Continued; the last 2 above are carried over.
{"target gene": "Tango6 (Transport and Golgi organization 6)", "DRSC id": "DRSC02671", "Wolbachia per cell robust z, rep 1": 0.214, "Wolbachia per cell robust z, rep 2": -1.64, "Wolbachia per cell robust z, rep 3": -1.48}
{"target gene": "Tango6 (Transport and Golgi organization 6)", "DRSC id": "DRSC29389", "Wolbachia per cell robust z, rep 1": 0.904, "Wolbachia per cell robust z, rep 2": 0.124, "Wolbachia per cell robust z, rep 3": -0.699}
{"target gene": "defl (deflated)", "DRSC id": "DRSC10300", "Wolbachia per cell robust z, rep 1": "-3.05 (active)", "Wolbachia per cell robust z, rep 2": -4.24, "Wolbachia per cell robust z, rep 3": 0.364}
{"target gene": "sp3 (spermathreecae)", "DRSC id": "DRSC16354", "Wolbachia per cell robust z, rep 1": "-3.08 (active)", "Wolbachia per cell robust z, rep 2": 0.223, "Wolbachia per cell robust z, rep 3": -5.36}
{"target gene": "sp3 (spermathreecae)", "DRSC id": "DRSC41446", "Wolbachia per cell robust z, rep 1": 0.84, "Wolbachia per cell robust z, rep 2": 0.0221, "Wolbachia per cell robust z, rep 3": 0.399}
{"target gene": "ProtB (Protamine B)", "DRSC id": "DRSC03373", "Wolbachia per cell robust z, rep 1": -0.975, "Wolbachia per cell robust z, rep 2": -3.14, "Wolbachia per cell robust z, rep 3": 0.528}
{"target gene": "ProtB (Protamine B)", "DRSC id": "DRSC27427", "Wolbachia per cell robust z, rep 1": -2.52, "Wolbachia per cell robust z, rep 2": -2.16, "Wolbachia per cell robust z, rep 3": -0.289}
{"target gene": "CG2162", "DRSC id": "DRSC08557", "Wolbachia per cell robust z, rep 1": 0.0456, "Wolbachia per cell robust z, rep 2": -6.63, "Wolbachia per cell robust z, rep 3": 0.0793}
{"target gene": "CG2162", "DRSC id": "DRSC25030", "Wolbachia per cell robust z, rep 1": 1.47, "Wolbachia per cell robust z, rep 2": -2.52, "Wolbachia per cell robust z, rep 3": 0.445}
{"target gene": "Rtel1 (Regulator of telomere elongation helicase 1)", "DRSC id": "DRSC18343", "Wolbachia per cell robust z, rep 1": 1.07, "Wolbachia per cell robust z, rep 2": -0.00429, "Wolbachia per cell robust z, rep 3": -0.7}
{"target gene": "Rtel1 (Regulator of telomere elongation helicase 1)", "DRSC id": "DRSC26293", "Wolbachia per cell robust z, rep 1": 0.698, "Wolbachia per cell robust z, rep 2": -0.548, "Wolbachia per cell robust z, rep 3": 0.308}
